Data on four compounds can be found in patent US20130274352A1, “Oral Drug Devices and Drug Formulations” (The Regents of the University of California, priority 2009, published 2013).

This data set relates to Caco-2 cells. As to the kind of experiment: Overall potential (OP = EP − TP). It is filed as cell-based, human. As to conditions: for OP: single CPE.

Consider Sodium laureth sulfate [SLA], for which, for the setting “14 discrete concentrations, FIG. 2D”, the “concentration of maximum in OP” value worked out at 0.02%. The compound also had an OP (Conc. 0.01%) of 0.59.

As for `CCCCCCCCCCCCOS(=O)(=O)[O-].[Na+]` [SLS, Sodium lauryl sulfate], where the note is “Conc. 0.01%”, the OP came out at 0.70. `O=C1CCCCCN1` [CL, Caprolactam] came in with an OP (Conc. 1%) of 0.48. Turning to `CCCCCCCCCCCC(=O)N(C)CC(=O)[O-].[Na+]` [NLS, N-Lauryl sarcosinate], the OP (Conc. 0.01%) amounted to 0.51.
